Anti-infective test results gathered from many reports (values: NIAID ChemDB through PubChem).

Shared fields: growth or infection tests; species: Mycobacterium tuberculosis

ECn: concentration that inhibits the pathogen or its effect by n%. Fold resistance has wild type as its base. A number after MIC or MFC names an inhibition level or a share of isolates. MIC bound: limit read from a one-dose screen. Percent inhibition refers to the dose given; in toxicity tests it is the harm to the cells. a–b is a range or a potency band. Blank or dashed fields: not listed here. Conditions beyond the fields shown may differ between rows.

smiles,strain or isolate,method,endpoint,conditions,dose,changes,value
Cc1cc(=O)n2cn[nH]c2n1,H37Rv,resazurin,inhibition,,6.25 µg/mL,,36%
CC(=O)Nc1ccc(/C=N/NC(N)=S)cc1,Isolate D (drug-resistant),,MBC,,,,30 µg/mL
O=C(NNS(=O)(=O)c1ccc(Cl)cc1)c1ccccc1,,,MIC,,,,>200 µg/mL
CCOC(=O)c1c(NC(=O)c2c(F)c(F)c(F)c(F)c2F)sc2c1CCOC2,ATCC35838,turbidity,EC90,,,,0.24 µM
CCCCCCCCCCCNCCNCCc1ccccc1Cl,,,MIC,,,,25 µM
COc1c(N2CCNC(C)C2)c(F)cc2c(=O)c(C(=O)O)cn(C3CC3)c12,Strain 474,,MIC,,,,0.06 µg/mL
C=C/C=N/NC(=O)c1ccccc1Cl,,,MIC,,,,10 µg/mL
Nc1ccc(S(=O)(=O)Nc2cnc3c(Cl)cccc3n2)cc1,H37Rv,BACTEC,MIC bound,,,,>12.5 µg/mL
C[C@H]1COc2c(N3CCN(C)CC3)c(F)cc3c(=O)c(C(=O)O)cn1c23,6S,,MIC,,,,0.5 µg/mL
COc1ccc(C(=O)/C=C/c2ccncc2)cc1,H37Rv,,EC50,,,,>12.5 µg/mL
COc1cc(N=Nc2ccc(C(=O)N(C)C)cc2)c(C)cc1N=Nc1c(O)c2ccccc2[nH]c1=O,H37Rv,BACTEC,MIC bound,,,,>12.5 µg/mL
O=C(/C=C/c1ccccc1)c1ccco1,H37Rv,,EC50,,,,<12.5 µg/mL
N#Cc1c(NC(=O)c2c(F)c(F)c(F)c(F)c2F)sc2c1CCOC2,H37Rv,turbidity,EC50,,,rpoB S522L mutant,3.8 µM
C[C@H]1COc2c(N3CCN(C)CC3)c(F)cc3c(=O)c(C(=O)O)cn1c23,Strain 34,,MIC,,,,0.125 µg/mL
C[C@@H]1[C@@H](NCCNC[C@@H]2CC[C@H]3C[C@@H]2C3(C)C)C[C@H]2C[C@@H]1C2(C)C,,,MIC,,,,6.25 µM
CCCCCOc1ccccc1NC(=O)OCCN1CCCCC1,My 331/88,,MIC,,,,32 µM
O=C1c2ccccc2OC(c2ccccc2)C1O,H37Rv,,inhibition,,12.5 µg/mL,,38%
CSc1ccc(C(=O)CCC(=O)NC[C@H]2CN(c3ccc(-n4cncn4)c(F)c3)C(=O)O2)cc1,10 clinical isolates sensitive,,MIC,,,,0.5–2 µg/mL
CCOc1cccc(NC(=O)OCCN2CCOCC2)c1,My 331/88,,MIC,,,,>500 µM
O=C(O)COc1ccc(/C=N/NC(=O)c2ccccc2Cl)cc1,,,MIC,,,,<40 µg/mL
Cc1cc(N/N=C/c2ccccn2)nc2ccccc12,H37Rv,BACTEC,inhibition,,12.5 µg/mL,,99%
CCCOc1ccc(NC(=O)OCCN2CCOCC2)cc1,My 331/88,,MIC,,,,1000 µM
Nc1nc(N)nc(-c2ccc(-n3nnc4ccccc4c3=O)cc2)n1,H37Rv,BACTEC,MIC bound,,,,>12.5 µg/mL
Nc1ccc(C(=O)NNC(=O)c2ccc(N)cc2)cc1,,,MIC,,,,>200 µg/mL
CC(C)Cc1ccc(C(=O)CCC(=O)NC[C@H]2CN(c3ccc(N4CCCCC4)c(F)c3)C(=O)O2)cc1,10 clinical isolates resistant,,MIC,,,,>16 µg/mL
COc1ccc2cc1Oc1ccc(cc1)C[C@H]1c3cc(c(OC)cc3CCN1C)Oc1c(O)c(OC)cc3c1[C@H](C2)N(C)CC3,H37Rv,BACTEC,inhibition,,12.5 µg/mL,,10%
CCCCCCCCOc1ccc(NC(=O)OCCN2CCCCCC2)cc1,My 331/88,,MIC,,,,8 µM
CCc1nc2ccc(C)cc2n1CCCCSc1ccccc1,H37Rv,turbidity / fluorescence,MIC99,,,,0.22 µM
CCOC(=O)c1c(NC(=O)c2c(F)c(F)c(F)c(F)c2F)sc2c1CCNC2=O,H37Rv,turbidity,MIC,,,katG Y155 truncation mutant,4.4 µM
S=c1nn[nH]n1-c1ccccc1,,,MIC,,,,200 µg/mL
CSc1ccc(C(=O)CCC(=O)NC[C@H]2CN(c3ccc(N4CCCC4)c(F)c3)C(=O)O2)cc1,10 clinical isolates resistant,,MIC,,,,>16 µg/mL
Cc1cnc(C(N)=O)c(=O)[nH]1,H37Rv,BACTEC,inhibition,,12.5 µg/mL,,-3%
CCCOc1ccccc1NC(=O)OCCN1CCCCCC1,My 331/88,,MIC,,,,125 µM
CO[C@H]1/C=C/O[C@@]2(C)Oc3c(C)c(O)c4c(O)c(c(/C=N/N5CCN(C/C=C/c6ccccc6)CC5)c(O)c4c3C2=O)NC(=O)/C(C)=C\C=C\[C@H](C)[C@H](O)[C@@H](C)[C@@H](O)[C@@H](C)[C@H](OC(C)=O)[C@@H]1C,3125 (rifampin-sensitive),,MBC,,,,0.1 µg/mL
COC(=O)[C@@H]1[C@H]2C[C@@H]3c4[nH]c5ccccc5c4CCN3C[C@@H]2CC[C@@H]1O,H37Rv,BACTEC,MIC bound,,,,>12.8 µg/mL
CCc1nc2ccc(OC)cc2n1CCCSc1nnc(-c2ccc(Cl)cc2)o1,H37Rv,turbidity / fluorescence,MIC99,,,,2.5 µM
CCC(C)NCCNCCc1ccc(Cl)cc1Cl,,,MIC,,,,25 µM
CCCCCOc1cccc(NC(=O)OCCN2CCCCC2)c1,My 331/88,,MIC,,,,32 µM
CO[C@H]1/C=C/O[C@@]2(C)Oc3c(C)c(O)c4c(=O)c(c5oc6cc(N7CCN(CC(C)C)CC7)cc(=O)c6nc5c4c3=C2O)NC(=O)/C(C)=C\C=C\[C@H](C)[C@H](O)[C@@H](C)[C@@H](O)[C@@H](C)[C@H](OC(C)=O)[C@@H]1C,Kurata,,inhibition,inside macrophages,1 µg/mL,,83.4%
C[C@H](O)CNCCNCCc1ccccc1,,,MIC,,,,50 µM
CCc1nc2ccccc2n1CCCCSc1nnc(-c2ccc(Cl)cc2)o1,H37Rv,turbidity / fluorescence,fold resistance,,,QcrB M342T,313
C[C@@H]1[C@H]2C[C@@H](C[C@H]1NCCNC1C3CC4CC(C3)CC1C4)C2(C)C,,,MIC,,,,12.5 µM
CCN1CCc2c(sc(NC(=O)c3c(F)c(F)c(F)c(F)c3F)c2C#N)C1,,low oxygen,EC50,,,,6.1 µM
CCCCCCOc1ccccc1NC(=O)OCCN1CCCCC1,My 331/88,,MIC,,,,16 µM
Nc1c(C(=O)O)nnc2cc(Cl)c(Cl)cc12,H37Rv,BACTEC,inhibition,,12.5 µg/mL,,31%
Cc1ccc(-c2cs/c(=N\NC(=O)COc3cnccn3)n2-c2ccc(Cl)cc2[N+](=O)[O-])cc1,H37Rv,,MIC,,,,4.5 µg/mL
CC(CO)NCCN[C@@H]1C[C@@H]2C[C@H]([C@H]1C)C2(C)C,,,MIC,,,,12.5 µM
CCN1CCc2c(sc(NC(=O)c3c(F)c(F)c(F)c(F)c3F)c2C(N)=O)C1,,low oxygen,EC50,,,,5 µM
CO[C@H]1/C=C/O[C@@]2(C)Oc3c(C)c(O)c4c(O)c(c5c(c4c3C2=O)NC2(CCN(CC(C)C)CC2)N=5)=NC(=O)/C(C)=C\C=C\[C@H](C)[C@H](O)[C@@H](C)[C@@H](O)[C@@H](C)[C@H](OC(C)=O)[C@@H]1C,H37Rv-pAV (Val516 mutation),,MIC,,,,≤0.015 µg/mL
CC(=O)Nc1ccc(C(=O)CCC(=O)NC[C@H]2CN(c3ccc(-n4cncn4)c(F)c3)C(=O)O2)cc1,10 clinical isolates sensitive,,MIC,,,,2–4 µg/mL
NC(=O)c1cnc(Cl)cn1,CDC-BP-98,,MIC,,,,16 µg/mL
CO[C@H]1/C=C/O[C@@]2(C)Oc3c(C)c(O)c4c(=O)c(c5oc6cc(N7CCN(C(C)C)CC7)cc(=O)c6nc5c4c3=C2O)NC(=O)/C(C)=C\C=C\[C@H](C)[C@H](O)[C@@H](C)[C@@H](O)[C@@H](C)[C@H](OC(C)=O)[C@@H]1C,2227 (rifampin-resistant),,MIC,,,,0.1 µg/mL
CC(C)(C)OC(=O)N1CCc2c(sc(N)c2C(=O)O)C1,H37Rv,resazurin,MIC,,,,>100 µg/mL
CCCCCCCCCCCNCCNCCc1ccc(OC)cc1,,,MIC,,,,25 µM
CC1=NNC(=O)C2CCCCC12,,,MIC,,,,>10 µg/mL
COc1ccc2cc1Oc1ccc(cc1)C[C@@H]1c3cc(c(OC)cc3CCN1C)Oc1c(OC)c(OC)cc3c1[C@@H](C2)N(C)CC3,H37Rv,BACTEC,MIC bound,,,,>12.5 µg/mL
NNC(=O)c1ccccc1Nc1ccccc1,,,MIC,,,,>40 µg/mL
CSC(=S)NN=C1CCCCC1,PAS-R,,MIC,,,,6.4 µg/mL
CCNC(=O)c1c(NC(=O)c2c(F)c(F)c(F)c(F)c2F)sc2c1CCN(CC)C2,ATCC35838,turbidity,EC50,,,,2.6 µM
CCCCCCCCCCCCCCOc1ccc(S(=O)(=O)/N=C(\N)NC(N)=NCCCCCCCCCC)cc1,H37Rv,resazurin,inhibition,,6.25 µg/mL,,41%
CC(C)n1c(-c2ccc(O)cc2)cs/c1=N\NC(=O)COc1cnccn1,H37Rv,,MIC,,,,8.4 µg/mL
COc1cc2oc(=O)ccc2cc1CC=C(C)C,H37Rv,BACTEC,inhibition,,128 µg/mL,,100%
CCCCCCOc1ccc(NC(=O)OCCN(C)C)cc1,My 331/88,,MIC,,,,16 µM
CC(C)(C)OC(=O)N[C@@H](Cc1c[nH]c2ccccc12)C(=O)ON1C(=O)CCC1=O,H37Rv,resazurin,MIC bound,,,,<6.25 µg/mL
NNC(=O)COc1ccc(Cl)cc1Cl,,,MIC,,,,200 µg/mL
CCCN(CCC)CCNc1ccc(C)c2sc3ccccc3c(=O)c12,H37Rv,BACTEC,inhibition,,12.5 µg/mL,,99%
Fc1ccccc1CNCCNC(c1ccccc1)c1ccccc1,,,MIC,,,,50 µM
Nc1ccccc1/C=C/C(=O)c1cc(Br)ccc1O,H37Rv,,inhibition,,12.5 µg/mL,,8%
CCc1nc2ccccc2n1CCCCNc1ccc(-c2ccccn2)cc1,H37Rv,turbidity / fluorescence,fold resistance,,,QcrB M342T,40
CN(C)CCCNC(=O)C1N=NC(=S)NC1=O,H37Rv,BACTEC,MIC bound,,,,>12.5 µg/mL
CC(C)Cn1c(-c2ccc(Cl)cc2)cs/c1=N\NC(=O)COc1cnccn1,H37Rv,,MIC,,,,7.2 µg/mL
Cc1nnc2n(N)c(=O)c(CC(=O)c3ccc(F)cc3)nn12,H37Rv,BACTEC,MIC bound,,,,>12.5 µg/mL
CC(=O)NC[C@H]1CN(c2ccc(N3CCOCC3)c(F)c2)C(=O)O1,7R,,MIC,,,,0.5 µg/mL
CCc1ccc([C@H]2C[C@@H](C(F)(F)F)n3ncc(C(=O)NCc4ccc5c(c4)OCO5)c3N2)cc1,H37Rv,fluorescence,fold resistance,,,MmpL3: Tyr252Cys,3.8
COC(=O)C1ON(C(=O)c2ccccc2)C(C)C(O)C1OC=O,H37Rv,BACTEC,inhibition,,12.5 µg/mL,,0%
CO[C@H]1/C=C/O[C@@]2(C)Oc3c(C)c(O)c4c(O)c(c5c(c4c3C2=O)NC2(CCN(CC(C)C)CC2)N=5)=NC(=O)/C(C)=C\C=C\[C@H](C)[C@H](O)[C@@H](C)[C@@H](O)[C@@H](C)[C@H](OC(C)=O)[C@@H]1C,Strain 122 (D516Y),,MIC,,,,0.25 µg/mL
COC(=O)NC1CC(C2CO2)OC1=O,H37Rv,BACTEC,MIC bound,,,,>12.5 µg/mL
N[C@@H]1CN(c2c(F)cc3c(=O)c(C(=O)O)cn([C@@H]4C[C@@H]4F)c3c2Cl)CC12CC2,Clinical strain,resazurin,MIC90,,,XDR,0.5 µg/mL
NC(=O)c1cnccn1,Isolate 9004 monodrug-resistant,,MIC,,,,>300 µg/mL
CC(C)=CCOc1c2ccoc2cc2oc(=O)ccc12.NNC(=O)c1ccncc1,H37Rv clinical isolate CRY5,agar,MIC100,,,Isoniazid-resistant,25 µg/mL
CC1CCCN(C(=S)S)C1.CC1CCCNC1,ETA-R,,MIC,,,,1.6 µg/mL
CC(C)CCCC(C)C1CCC2C3CC=C4C/C(=N/NC(=O)c5ccccc5)CCC4(C)C3CCC12C,,,MIC,,,,>1000 µg/mL
CCOc1ccc(-n2c(-c3ccc(Cl)cc3)cs/c2=N\NC(=O)COc2cnccn2)cc1,H37Rv,,MIC,,,,8.7 µg/mL

Repeating the final 5 entries:

smiles,strain or isolate,method,endpoint,conditions,dose,changes,value
NC(=O)c1cnccn1,Isolate 9004 monodrug-resistant,,MIC,,,,>300 µg/mL
CC(C)=CCOc1c2ccoc2cc2oc(=O)ccc12.NNC(=O)c1ccncc1,H37Rv clinical isolate CRY5,agar,MIC100,,,Isoniazid-resistant,25 µg/mL
CC1CCCN(C(=S)S)C1.CC1CCCNC1,ETA-R,,MIC,,,,1.6 µg/mL
CC(C)CCCC(C)C1CCC2C3CC=C4C/C(=N/NC(=O)c5ccccc5)CCC4(C)C3CCC12C,,,MIC,,,,>1000 µg/mL
CCOc1ccc(-n2c(-c3ccc(Cl)cc3)cs/c2=N\NC(=O)COc2cnccn2)cc1,H37Rv,,MIC,,,,8.7 µg/mL